PMC11109247 (Nature Communications, 2024)

What was measured:
[1] = target: T1, recombinant NiVMY G ectodomain (residues 71-602, Strep-tag) (Nipah virus Malaysia (NiVMY), UniProt Q9IH62); test: cell-based or functional assay
[2] = target: T1, recombinant NiVMY G ectodomain …; test: BLI
[3] = target: recombinant HeV G ectodomain (residues 71-604) (Hendra virus (HeV), UniProt O89343); test: BLI
[4] = target: recombinant HeV G ectodomain (residues 71-604) (Hendra virus (HeV), UniProt O89343 71-604); test: Luminex bead assay (competitive)

Row | Binder | Live virus neutralization IC50 (plaque reduction), NiVMY [1] | Kd [2] | Kd [3] | binding result [4]
1 | 1E5 (chimeric macaque-human IgG1 antibody) (antibody, V domains shown, also called bnAb 1E5; mAb 1E5; source: Expi293F, transient transfection, purified) VH: QVQLQESGPGVVKPSETLSLTCAVSGGSISDTYRWSWIRQPPGKGLEWIGYIYGSATSTYYNPSLSSRVTISKDMSKNQFSLNLNSVTAADTAVYYCARDYQYYYSGSYPTPHNWFDVWGPGVLVTVSS VL: DIQMTQSPSSLSASVGDRVTITCRASQGIIDYLSWYQQKPGKAPKLLISTASNLESGVPSRFSGSGSGTEFTLTISSLQPEDFATYSCLQGYTTPYTFGQGTKVEIK | 0.03 µg/mL | < 10 pM | < 10 pM | 
2 | ephrinB3-Fc chimaera (human ephrin-B3 residues 28-224, human IgG1 Fc) (Fc fusion, biotin (Luminex assay), also called EB3-Fc; EB3; source: Expi293F, transient transfection, purified) LSLEPVYWNSANKRFQAEGGYVLYPQIGDRLDLLCPRARPPGPHSSPNYEFYKLYLVGGAQGRRCEAPPAPNLLLTCDRPDLDLRFTIKFQEYSPNLWGHEFRSHHDYYIIATSDGTREGLESLQGGVCLTRGMKVLLRVGQSPRGGAVPRKPVSEMPMERDRGAAHSLEPGKENLPGDPTSNATSRGAEGPLPPPS |  |  |  | binds
